Consider one compound from patent US20100184727A1, “TREATMENT OF EXCESS SEBUM PRODUCTION” (SUMMIT (CAMBRIDGE) LIMITED, priority 2006, published 2010).

The series concerns sebum production. The experiment in a line: Sebum production study in healthy male volunteers (Sebumeter). It counts as in vivo. The following applies: mixed effects regression, subject as random effect. Here is the method:
The study examined the effects of oxybutynin on sebum production in 9 healthy male volunteers. This was double-blind, randomised, placebo-controlled dose study
The subjects were assessed on each dosing occasion for sebum production pre-dose and 1 h, 2.5 h, 4 h and 6 h post-dose. Skin sebum excretion rates were determined using a Sebumeter® (Optical measurement of sebum excretion using opalescent film imprint, 2006, Handbook of non-invasive methods and the skin, Second Edition). Vital signs were recorded at specified times during each study period and adverse events were reported throughout.
For each subject, the maximum % reduction in sebum production compared to placebo was calculated for each dose level. Using this information, a mixed effects regression analysis of the % reduction in sebum versus dose with subject as a random effect was performed.

On to `CCN(CC)CC#CCOC(=O)C(O)(c1ccccc1)C1CCCCC1` (stereo not shown) [oxybutynin], for which the “Slope (mixed model regression of % reduction in sebum versus dose)” value is recorded as −10.07.
